Experimental findings from PMC6430785, “Selective binding of a toxin and phosphatidylinositides to a mammalian potassium channel” (Nature Communications, 2019) are described below.

The target of assay [1] is T1, Mouse G-protein-gated inward rectifying potassium channel 2 (GIRK2), residues 52-380 (Mus musculus, UniProt P48542 52-380).
T1 construct: also called Kir3.2; KCNJ6; not shown: eGFP, C-terminal, cleaved; StrepII, C-terminal, cleaved; His6, C-terminal, cleaved
T1 sequence (looked up): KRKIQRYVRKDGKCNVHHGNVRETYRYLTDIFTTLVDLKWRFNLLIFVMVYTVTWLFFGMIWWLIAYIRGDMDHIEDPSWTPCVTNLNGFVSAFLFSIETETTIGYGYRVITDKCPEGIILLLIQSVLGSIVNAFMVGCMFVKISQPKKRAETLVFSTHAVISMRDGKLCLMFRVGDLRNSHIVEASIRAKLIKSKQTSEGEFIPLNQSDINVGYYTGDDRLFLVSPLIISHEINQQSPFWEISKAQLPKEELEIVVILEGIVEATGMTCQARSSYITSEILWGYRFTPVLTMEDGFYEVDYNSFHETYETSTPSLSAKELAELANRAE
In words: native MS.

The target in assay [2] is T2, GIRK2 R201A mutant (mouse, residues 52-380) (Mus musculus, UniProt P48542 52-380, R201A).
T2 sequence: T1 sequence (looked up) with R150A
In words: native MS.

Residue numbers refer to the chain shown, from its start.

Turning to ALCNCNRIIIPHQCWKKCGKK [Tertiapin Q (oxidation resistant form of tertiapin, Met13 mutated to Q)], the stoichiometry N – broadly, a count of units in the complex or per binding partner – in assay [1] stood at 1. The binding result in assay [2] is given as “binds”.
